Anti-infective test results gathered from many reports (values: NIAID ChemDB through PubChem).

Shared fields: growth or infection tests; organism: Plasmodium falciparum; read-out: EC50

An empty or dashed field is not shown. Rows are shuffled and stem from different studies. ECn is the concentration giving n% inhibition of infection, replication or growth.

structure	strain or isolate	mutations	method	result
CCOC(=O)COc1cccc(-c2cc(Cl)cc(C3(C4CCC4)C(C#N)=C(N)Oc4n[nH]c(C)c43)c2)c1	NF54		radiometric	0.14 µM
N=C(N)c1ccc(NCCCCCCNc2ccc(C(=N)N)cc2)cc1	W2		hypoxanthine uptake	0.053 µM
Cn1cc(O)c(=O)cc1CNCCCCNc1ccnc2cc(Cl)ccc12	3D7		radiometric	0.67 µM
Cc1ccc(C(C)C)cc1.NC(=S)N/N=C/c1ccc(Cl)cc1.[Cl][Ru+]	Dd2		LDH	3.8 µM
COc1ccc(C(=O)/C=C/c2cccc3ccccc23)cc1	INDO		SYBR Green / fluorescence	20 µM
CCC[C@H]1O[C@@H]2CC(=O)O[C@@H]2C2=C1C(=O)c1c(O)cccc1C2=O	7G8		SYBR Green	0.8 µM
COc1c(C=O)c(O)cc2c1C(=O)c1ccccc1C2=O	3D7			51.28 µM
COc1cc(OC)c(OC)cc1/C=C/C=C/C(=O)c1ccc(Cl)cc1	Dd2		SYBR Green / fluorescence	36 µM
Clc1ccc2c(NCCCCNc3nc(Nc4ccccc4)nc(N4CCOCC4)n3)ccnc2c1	D6			0.29 µM
C[C@H](NC(=O)[C@@H](O)c1cc(F)cc(F)c1)C(=O)N[C@@H]1C(=O)N(C)c2ccccc2-c2ccccc21				0.1 µM
N=C(N)c1ccc(OCCCOc2ccc(C(=N)N)cc2)cc1	W2		hypoxanthine uptake	0.064 µM
NC(=S)N/N=C/c1ccccc1.[Cl][Ru+].c1ccccc1	NF54		LDH	10.2 µM
N=C(N)c1ccc(OCCCCCOc2ccc(C(=N)N)cc2Br)c(Br)c1	W2		hypoxanthine uptake	0.146 µM
CCCCOC(=O)CC[C@H](NC(=O)c1ccc(-c2cc(C#N)cc(C3(C(C)C)C(C#N)=C(N)Oc4n[nH]c(C)c43)c2)s1)C(=O)OCCCC	K1		radiometric	2.35 µM
CCOc1ccc(F)cc1C1(O)c2cc(Cl)ccc2NC1N	Dd2			0.065 µM
CN(CCCNc1ccnc2cc(Cl)ccc12)Cc1cc(=O)c(O)cn1C1CC1	K1		radiometric	0.46 µM
CCc1ccc(Nc2nc(NCCCNc3ccnc4cc(Cl)ccc34)nc(N3CCOCC3)n2)cc1	W2			0.42 µM
CCCCCCCCCC1CC2CCC3CC(C)NC(=N1)N23	W2		LDH	6.2 µM
COc1ccc(OC)c(/C=C/C(=O)c2ccc(N3CCOCC3)cc2)c1				3.26 µg/mL
CC1CC2CCCC3CC(CCc4cccc(Cl)c4)N=C(N1)N32	W2		LDH	3.02 µM
OCCN1CCN(C(c2ccccc2)c2ccccc2)CC1	D6		SYBR Green / fluorescence	>2.5 µM
O=C(CNc1ccnc2cc(Cl)ccc12)N[C@H]1C(=O)N(C2CCCCCC2)[C@H]1/C=C/c1ccccc1	W2	Chloroquine-resistant	flow cytometry	1.145 µM
COc1ccc(/C=C/C(=O)c2ccc(N3CCN(C)CC3)cc2)cc1OC				4.96 µg/mL
CCn1c2c(c3ccccc31)C(=O)c1ccc3ccccc3c1C2=O	FRC-3		broth dilution	0.22 µM
CN(Cc1ccc(F)cc1)C(=O)c1c[n+]2c(cn1)CN=C2c1ccc(C(F)(F)F)cc1			SYBR Green	>10 µM
Clc1ccc2c(NCCCNc3nc(Nc4ccccc4)nc(N4CCOCC4)n3)ccnc2c1	W2			1.05 µM
CCN(CC)CCCC(C)Nc1ccnc2cc(Cl)ccc12	K1			0.198 µM
Fc1ccc(Nc2nc(NCCCCNc3ccnc4cc(Cl)ccc34)nc(N3CCOCC3)n2)cc1	D6			0.24 µM
C[C@H](NC(=O)[C@@H](O)C1CCCCC1)C(=O)N[C@@H]1C(=O)N(C)c2ccccc2-c2ccccc21				0.065 µM
N=C(N)c1ccc(NCCCCNc2ccc(C(=N)N)cc2N)c(N)c1	D6		hypoxanthine uptake	0.659 µM
CCN(CC)CCCNC(=O)c1ccc(-c2cc(C#N)cc(C3(C(C)C)C(C#N)=C(N)Oc4n[nH]c(C)c43)c2)s1	TM90C2B		radiometric	1.85 µM
CC1CC2CCC3CC(CCc4cccc(Cl)c4)N=C(N1)N32	W2		LDH	7.25 µM
COc1cc(OC)c(OC)cc1/C=C/C=C/C(=O)c1ccc2ccccc2c1	Dd2		SYBR Green / fluorescence	25 µM
COc1cc(C2=NCCN2)ccc1OCCCOc1ccc(C2=NCCN2)cc1OC	D6		hypoxanthine uptake	0.177 µM
Cc1c(O)c2ccccc2c2nc(NCCCN3CCOCC3)sc12	D10		hypoxanthine uptake	0.6 µM
CCN(CC)CCCC(C)Nc1ccnc2cc(Cl)ccc12	Dd2	MDR	absorbance	0.13 µM
O=C(CCCCCNc1ccnc2cc(Cl)ccc12)N[C@H]1C(=O)N(C2CCCCCC2)[C@H]1/C=C/c1ccccc1	W2	Chloroquine-resistant	flow cytometry	0.152 µM
Cc1c(O)cc2c(c1O)C(=O)c1ccccc1C2=O	3D7			>39 µM
CCN(CC)CCCC(C)NC(=O)c1ccc(-c2cc(C#N)cc(C3(C(C)C)C(C#N)=C(N)Oc4n[nH]c(C)c43)c2)s1	NF54		radiometric	2.51 µM
CC[n+]1c(Nc2ccccc2)sc2c(C)c(O)c3ccccc3c21	D10		hypoxanthine uptake	10 µM
NCCNc1ccnc2cc(Cl)ccc12	K1		LDH	2.56 µM
COc1ccc(/C=C/C(=O)c2ccc(N3CCOCC3)cc2)c(OC)c1				2.95 µg/mL
COc1c(C)c(O)cc2c1C(=O)c1ccccc1C2=O	3D7			>37 µM
N=C(N)c1ccc(NCCCCCNc2ccc(C(=N)N)cc2N)c(N)c1	W2		hypoxanthine uptake	0.183 µM
COc1ccc(/C=C/C(=O)c2ccc(-n3ccnc3)cc2)c(OC)c1				6.7 µg/mL
COC(=O)c1c(C)cc(OC(=O)c2c(C)cc(O)c(C=O)c2O)c(C)c1O	W2 Mef		hypoxanthine uptake / radiometric	1.78 µM
Cc1ccc(C(C)C)cc1.NC(=S)N/N=C/c1ccc2ccccc2c1.[Cl][Ru+]	NF54		LDH	3.2 µM
COc1ccc(/C=C/C(=O)c2ccc(-n3cnc4ccccc43)cc2)cc1OC				5.04 µg/mL
O=C(Nc1cc(C(F)(F)F)ccc1-n1cncn1)C1(c2ccccc2)CC1	TM90C2B			0.076 µM
Cc1[nH]nc2c1C(c1cc(C#N)cc(-c3ccc(C(=O)N(C)C)s3)c1)(C(C)C)C(C#N)=C(N)O2	K1		radiometric	0.13 µM
CCCCCCCCCCCCC#CC(=O)O	K1			121.7 µM
COc1ccc(/C=C/C(=O)c2ccc(Cl)cc2)c(OC)c1OC	INDO		SYBR Green / fluorescence	16.3 µM
CC(C)CCC[C@@H]1C[C@@H]2CCC[C@@H]3C[C@H](CCCC(C)C)NC(=N1)N32	W2		LDH	1.96 µM
O=C1[C@@H](NCCNc2ccnc3cc(Cl)ccc23)[C@@H](/C=C/c2ccccc2)N1C1CCCCC1	W2	Chloroquine-resistant	flow cytometry	0.1389 µM
COC(=O)CCc1cccc(-c2cc(Cl)cc(C3(C4CCC4)C(C#N)=C(N)Oc4n[nH]c(C)c43)c2)c1	NF54		radiometric	0.08 µM
CCC(C)(C(=O)Nc1cc(C(F)(F)F)ccc1-n1cncn1)c1ccccc1	3D7			0.066 µM
O=C(O)/C=C/c1ccc(O)cc1	W2 Mef		hypoxanthine uptake / radiometric	12.89 µM
Cc1c(O)c2ccccc2c2c1sc(NC1CCCCC1)[n+]2CCCN1CCOCC1	D10		hypoxanthine uptake	0.33 µM
Cn1cc(O)c(=O)cc1CNCCCCCCNc1ccnc2cc(Cl)ccc12	3D7		radiometric	0.19 µM
N=C(N)c1ccc(NCCNc2ccc(C(=N)N)cc2N)c(N)c1	D6		hypoxanthine uptake	>1 µM
COc1ccc(/C=C/C(=O)c2ccc(-n3cncn3)cc2)cc1OC				5.85 µg/mL
NC(=S)N/N=C/c1ccc(Cl)cc1.[Cl][Ru+].c1ccccc1	NF54		LDH	6.2 µM
O=c1cc(CNCCCCNc2ccnc3cc(Cl)ccc23)n(C2CC2)cc1O	3D7		radiometric	0.17 µM
COc1ccc(/C=C/C=C/C(=O)c2ccc(Cl)cc2)cc1OC	3D7		SYBR Green / fluorescence	22.5 µM
C#CCC[C@@H]1C[C@@H]2CC[C@@H]3C[C@H](CCC#C)NC(=N1)N32	W2		LDH	7.71 µM
Cn1cc(O)c(=O)cc1CNCCCNc1ccnc2cc(Cl)ccc12	3D7		radiometric	0.12 µM
COc1cc(OC)c(OC)cc1/C=C/C=C/C(=O)c1ccc(Cl)c(Cl)c1	Dd2		SYBR Green / fluorescence	78 µM
N=C(N)c1ccc(OCCCCOc2ccc(C(=N)N)cc2N)c(N)c1	D6		hypoxanthine uptake	0.152 µM

Again, the opening 6 rows:

structure	strain or isolate	mutations	method	result
CCOC(=O)COc1cccc(-c2cc(Cl)cc(C3(C4CCC4)C(C#N)=C(N)Oc4n[nH]c(C)c43)c2)c1	NF54		radiometric	0.14 µM
N=C(N)c1ccc(NCCCCCCNc2ccc(C(=N)N)cc2)cc1	W2		hypoxanthine uptake	0.053 µM
Cn1cc(O)c(=O)cc1CNCCCCNc1ccnc2cc(Cl)ccc12	3D7		radiometric	0.67 µM
Cc1ccc(C(C)C)cc1.NC(=S)N/N=C/c1ccc(Cl)cc1.[Cl][Ru+]	Dd2		LDH	3.8 µM
COc1ccc(C(=O)/C=C/c2cccc3ccccc23)cc1	INDO		SYBR Green / fluorescence	20 µM
CCC[C@H]1O[C@@H]2CC(=O)O[C@@H]2C2=C1C(=O)c1c(O)cccc1C2=O	7G8		SYBR Green	0.8 µM